# The entries are a selection whose mix differs from that of the whole data set. Active and inactive are the calls of the source. Cut-off read from the data, not from the text of the source: active = inhibition above about 38%; inactive = the rest.
# Sequences of proteins named here, by UniProt entry; tags and fusion partners are left off. A change or cut given only in a name is not applied to a line headed by its entry.
# UniProt P9WHR9: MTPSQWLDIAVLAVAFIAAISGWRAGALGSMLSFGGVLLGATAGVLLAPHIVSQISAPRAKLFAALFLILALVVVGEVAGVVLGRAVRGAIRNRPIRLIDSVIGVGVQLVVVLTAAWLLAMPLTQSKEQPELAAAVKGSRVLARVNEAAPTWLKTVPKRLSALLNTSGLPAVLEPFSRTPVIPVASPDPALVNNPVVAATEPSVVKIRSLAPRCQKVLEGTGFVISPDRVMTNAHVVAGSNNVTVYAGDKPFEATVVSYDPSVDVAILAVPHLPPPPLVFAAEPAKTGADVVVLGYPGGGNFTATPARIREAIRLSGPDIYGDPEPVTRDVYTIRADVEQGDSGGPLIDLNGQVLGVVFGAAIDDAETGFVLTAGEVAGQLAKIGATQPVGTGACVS
# Biological target: Serine protease Rv3671c (Mycobacterium tuberculosis (strain ATCC 25618 / H37Rv)) (UniProt P9WHR9)
# Test: Rv3671c serine protease inhibitors, retest, confirmation, biochemical, fluorescence polarization, M. tuberculosis H37Rv (AID 2761)
# Settings: at 5.96 µM; active compounds read high
smiles,measurement,value
O=[N+]([O-])c1cc([N+](=O)[O-])c(CCNc2ccccc2)c([N+](=O)[O-])c1,inhibition,inactive: 7.31%
